Laboratory results from patent publication US20040197809A1.

Biological target: gp120, the major envelope glycoprotein of HIV-I (HIV-1)
Assay: saturation binding of 125I-gp120 in solution, immunoprecipitation with OKT4, Scatchard analysis

Substance: detergent solubilized intact CD4 (from UniProt P01730 26-458) (receptor)
- Kd: 1.3 nM
